A mixed list of measured activities; the numbers were collected in NIAID ChemDB.

Shared fields: tests in culture; organism: Mycobacterium tuberculosis

ECn: concentration that inhibits the pathogen or its effect by n%. Lines come from different laboratories, so protocols vary. Percent inhibition refers to the dose given; in toxicity tests it is the harm to the cells. Blank or dashed fields: not listed here. A number after MIC or MFC names an inhibition level or a share of isolates. MIC bound comes from a single tested concentration.

smiles | conditions | strain | changes | dose | read by | read-out | value
O=C1OC2(CCCCC2)Cc2oc3ccccc3c(=O)c21 | - | H37Rv | - | 12.5 µg/mL | BACTEC | inhibition | 6.11%
CC(C)=CCc1c2c(c(O)c3c(=O)c4cccc(O)c4oc13)C=CC(C)(C)O2 | - | H37Ra | - | - | - | MIC | 12.5 µg/mL
O=C1NOCC1NC(=O)C(F)(F)F | - | 12PI | - | - | - | MIC | 25 µg/mL
COc1ccc(C2=NNc3c4ccccc4c4c5cc(C)ccc5nc-4n3C2)cc1 | - | H37Rv | - | - | broth dilution / resazurin | MIC | 0.2 µg/mL
CCCCCC(CC(=O)N1N=CCCC1C(=O)N[C@H]1COC(=O)C2C[C@@H](C)CNN2C(=O)[C@H](C)NC(=O)[C@@H](CC(C)C)NC1=O)C(=O)O | - | H37Rv | - | - | - | MIC | 12.5 µg/mL
CCNC(=O)OCC1=C(COC(=O)NCC)C2OC1C(C(=O)OC)=C2C(=O)OC | - | H37Rv | - | - | BACTEC | MIC bound | >12.5 µg/mL
C[C@]1(COc2ccc(N3CCC(COc4ccc(F)cc4)CC3)cc2)Cn2cc([N+](=O)[O-])nc2O1 | - | H37Rv | - | - | - | MIC | 0.05 µg/mL
CC(C)=CCc1c(O)c2c(c3c(=O)c4c(O)c5c(cc4oc13)OC(C)(C)C=C5)C=CC(C)(C)O2 | - | H37Ra | - | - | - | MIC | 25 µg/mL
O=C1C(Nc2ccccc2)=C(c2ccccc2)C(=O)N1c1ccccc1 | - | H37Rv | - | - | BACTEC | MIC bound | >12.5 µg/mL
CO[C@H]1/C=C/O[C@@]2(C)Oc3c(C)c(O)c4c(O)c(c(/C=N/N5CCN(C)CC5)c(O)c4c3C2=O)NC(=O)/C(C)=C\C=C\[C@H](C)[C@H](O)[C@@H](C)[C@@H](O)[C@@H](C)[C@H](OC(C)=O)[C@@H]1C | - | - | Bedaquiline-resistant A63P | - | broth dilution | MIC80 | 0.04 µM
C=C(C[N+](C)(C)C)N/N=C/c1oc(-c2ccc(OC)c(OC)c2)c(-c2ccc(OC)c(OC)c2)c1[N+](=O)[O-].[Cl-] | - | H37Rv | - | - | BACTEC | MIC bound | >12.5 µg/mL
[C-]#[N+][C@]12C(=C)C(C)(C)c3[nH]c4cccc5c4c3[C@]1(O)[C@H](CC[C@]2(C)C=C)C5(C)C | - | H37Rv | - | - | resazurin | MIC90 | >100 µM
CCCCCC[C@@]1(C)Cn2cc([N+](=O)[O-])nc2O1 | - | H37Rv | - | - | visual reading / absorbance | MIC100 | 0.01 µg/mL
N#Cc1c(N)[n+]([O-])c2c([n+]1[O-])CCCC2 | - | H37Rv | - | 12.5 µg/mL | BACTEC | inhibition | 18%
CC(C)(C)c1nnc2c3ccccc3c3c4cc(Cl)ccc4[nH]c3n12 | - | H37Rv | - | - | broth dilution / resazurin | MIC | 1.6 µg/mL
CC(C)c1ccccc(=O)c1O | - | H37Rv | - | - | BACTEC | MIC bound | ≤128 µg/mL
FC(F)(F)c1cccc(N2CN(c3cccc(C(F)(F)F)c3)CN(c3cccc(C(F)(F)F)c3)C2)c1 | - | H37Rv | - | - | colony count / visual reading | MIC | 62.5 µg/mL
NC(=O)c1cnccn1 | - | H37Rv | - | - | broth dilution / resazurin | MIC | 3.125 µg/mL
Cc1cn([C@H]2C[C@H](N=[N+]=[N-])[C@@H](COC(=O)CN3CCN(c4cc5c(cc4F)c(=O)c(C(=O)O)cn5C4CC4)CC3)O2)c(=O)[nH]c1=O | - | H37Rv (ATCC 27294) | - | - | BACTEC | EC50 | 99 µg/mL
CN[C@@H]1[C@H](O[C@H]2[C@H](O[C@H]3[C@H](O)[C@@H](O)[C@H](N=C(N)N)[C@@H](O)[C@@H]3N=C(N)N)O[C@@H](C)[C@]2(O)C=O)O[C@@H](CO)[C@H](O)[C@H]1O | - | - | Bedaquiline-resistant I66M | - | broth dilution | MIC80 | 0.3 µM
N#Cc1nc(COCCOCc2ccccc2)oc1N | - | H37Rv | - | - | BACTEC | MIC bound | >12.5 µg/mL
Fc1cccc(N2CN(c3cccc(F)c3)CN(c3cccc(F)c3)C2)c1 | - | H37Rv | - | - | colony count / visual reading | MIC | 62.5 µg/mL
CN1C(=O)N(C)C2CC(=O)c3c(ccc4c3ncn4C)N2C1=O | - | H37Rv | - | - | BACTEC | MIC bound | >12.5 µg/mL
COc1nc2ccc(Br)cc2cc1[C@@H](c1ccccc1)[C@@](O)(CCN(C)C)c1cccc2ccccc12 | - | 35822 | Isoniazid-resistant | - | broth dilution | MIC80 | <2 µM
NC(=S)N/N=C1/C(=O)N(c2ccc(Cl)cc2)C(=O)C1C(=O)Nc1ccc(Cl)cc1 | - | H37Rv | - | - | BACTEC | MIC bound | >12.8 µg/mL
Cn1c([N+](=O)[O-])cnc1-c1nnc(S(=O)Cc2ccccc2[N+](=O)[O-])s1 | - | - | - | - | - | MIC | >6.25 µg/mL
CC(C)OC(=O)NNC(=O)c1ccncc1 | - | H37Rv | - | 6.25 µg/mL | resazurin | inhibition | 97%
FC(F)(F)c1ccc(N2CN(c3ccc(C(F)(F)F)cc3)CN(c3ccc(C(F)(F)F)cc3)C2)cc1 | - | H37Rv | - | - | colony count / visual reading | MIC | 25 µg/mL
COc1ccc(C2=C(c3ccccc3)c3c(OC)cc(OC)cc3OC2)cc1 | - | H37Rv | - | 12.5 µg/mL | BACTEC | inhibition | 0%
C[C@]1(COc2ccc(N3CCC(Nc4ccc(OC(F)(F)F)cc4)CC3)cc2)Cn2cc([N+](=O)[O-])nc2O1 | - | H37Rv | - | - | - | MIC | 0.024 µg/mL
S=C(S)NC1CCCCCCCCCCC1 | - | H37Rv | - | 12.5 µg/mL | BACTEC | inhibition | 44%
O=C(NC1CONC1=O)c1ccc(F)cc1 | - | 12PI | - | - | - | MIC | 25 µg/mL
O=[N+]([O-])c1ccc(CS(=O)c2nnc(-c3ccc([N+](=O)[O-])s3)s2)cc1 | - | - | - | - | - | MIC | >6.25 µg/mL
CC(C)=CCC/C(C)=C/Cc1c(O)cc2oc3c(O)cccc3c(=O)c2c1O | - | H37Ra | - | - | - | MIC | 200 µg/mL
CC[C@@H](CO)NCCN[C@@H](CC)CO | - | ATCC 25177 | - | - | - | MIC | 3.6 µM
C=C[C@]1(C)C2=C3c4c([nH]c5cccc(c45)C(C)(C)[C@H]3C[C@H]1Cl)C(C)(C)C(C#N)=C2 | - | H37Rv | - | - | resazurin | MIC90 | 53.7 µM
NNC(=O)c1ccc(Cl)cc1 | - | - | - | - | - | EC50 | <0.125 µg/mL
C/C(=C\CC1=C(O)c2ccccc2C(=O)C1=O)CO | - | H37Rv | - | - | BACTEC | MIC bound | ≤128 µg/mL
NNC(=O)c1ccncc1 | - | ATCC 27294 | - | - | resazurin | MIC | 0.22 µM
CC1(C)Cc2ccc(OCC3CCN(c4ccc(OC[C@@]5(C)Cn6cc([N+](=O)[O-])nc6O5)cc4)CC3)cc2O1 | - | H37Rv | - | - | - | MIC | 0.024 µg/mL
Cn1c([N+](=O)[O-])cnc1-c1nnc(S(=O)Cc2ccc([N+](=O)[O-])cc2)s1 | - | - | - | - | - | MIC | 6.25 µg/mL
C[C@H]1COc2c(N3CCN(C)CC3)c(F)cc3c(=O)c(C(=O)O)cn1c23 | - | 55 isolates | - | 1 µg/mL | - | inhibition | 91%
NNC(=O)CCCCC(=O)NN | - | - | - | - | - | EC50 | <0.125 µg/mL
CC1=CCC[C@H]2[C@](C)(Cc3cc(O)ccc3O)[C@@H](C)CC[C@]12C | - | H37Rv | - | - | BACTEC | MIC | ≥12.5 µg/mL
COc1c(O)cc2oc3cc(O)c(CC=C(C)C)c(O)c3c(=O)c2c1CCC(C)(C)O | - | H37Ra | - | - | - | MIC | 25 µg/mL
Brc1ccc(N2CN(c3ccc(Br)cc3)CN(c3ccc(Br)cc3)C2)cc1 | - | H37Rv | - | - | colony count / visual reading | MIC | 125 µg/mL
O=c1c2ccccc2c(-c2ccccc2)nn1-c1nc2[nH]c3ccc(Cl)cc3c2c2ccccc12 | - | H37Rv | - | - | broth dilution / resazurin | MIC | 12.5 µg/mL
COc1cc(NC(=O)NC23CCC4CC(CC2C4)C3)cc(C(F)(F)F)c1 | - | H37Rv | - | - | - | MIC | 0.9 µg/mL
CN(c1ccc(OC(F)(F)F)cc1)C1CCN(C2CCN(c3ccc(OC[C@@]4(C)Cn5cc([N+](=O)[O-])nc5O4)cc3)CC2)CC1 | - | H37Rv | - | - | - | MIC | 0.024 µg/mL
CC1=NN(C(=O)CC(=O)N(C(=O)c2ccccc2Cl)c2ccc(C)cc2)C(=O)C1N=Nc1ccc([N+](=O)[O-])cc1 | - | H37Rv | - | 12.5 µg/mL | BACTEC | inhibition | 32%
Cn1c([N+](=O)[O-])cnc1-c1nnc(S(=O)(=O)Cc2ccccc2[N+](=O)[O-])s1 | - | - | - | - | - | MIC | 6.25 µg/mL
COc1ccc(-n2nnnc2SSc2nnnn2-c2ccc(OC)cc2)cc1 | - | H37Rv | - | - | - | MIC | 500 µM
C[C@]1(COc2ccc3nc(N4CCN(Cc5ccc(OC(F)(F)F)cc5)CC4)sc3c2)Cn2cc([N+](=O)[O-])nc2O1 | - | H37Rv | - | - | - | MIC | 0.2 µg/mL
C[N+](C)(C)CC(=O)NNC(=O)CCn1[nH]c(=O)c(Cl)c(Cl)c1=O.[Cl-] | - | H37Rv | - | - | BACTEC | MIC bound | >12.5 µg/mL
CN[C@@H]1[C@H](O[C@H]2[C@H](O[C@H]3[C@H](O)[C@@H](O)[C@H](N=C(N)N)[C@@H](O)[C@@H]3N=C(N)N)O[C@@H](C)[C@]2(O)C=O)O[C@@H](CO)[C@H](O)[C@H]1O | - | ATCC 27294 | - | - | - | MIC | 0.086 µM
COc1c(O)cc2oc3cc4c(c(O)c3c(=O)c2c1CC=C(C)C)CC(C(C)(C)O)O4 | - | H37Ra | - | - | - | MIC | 25 µg/mL
CCCCCCC[C@@]1(C)Cn2cc([N+](=O)[O-])nc2O1 | - | H37Rv | - | - | visual reading / absorbance | MIC100 | 0.25 µg/mL
C[C@]1(COc2ccc(-c3ccc(N4CCN(Cc5ccc(Cl)cc5)CC4)cc3)cc2)Cn2cc([N+](=O)[O-])nc2O1 | - | H37Rv | - | - | - | MIC | 0.1 µg/mL
Cc1ncc2c(n1)CCC1=C2OS(=O)(=O)CC1N(C)C | - | H37Rv | - | - | BACTEC | MIC | ≥12.5 µg/mL
Cc1ccc(N2CN(c3ccc(C)cc3)CN(c3ccc(C)cc3)C2)cc1 | - | H37Rv | - | - | colony count / visual reading | MIC | 250 µg/mL
Cc1cn([C@@H]2C[C@H](CCCO)C(CO)O2)c(=O)[nH]c1=O | - | H37Rv | - | - | resazurin | MIC bound | >6.25 µg/mL
C=C(C)CC[C@H]1CN(c2ccn(N3CCOCC3)c2)C(=O)O1 | - | ATCC 27294 | - | - | - | MIC50 | >100 µM
CN[C@@H]1[C@H](O[C@H]2[C@H](O[C@H]3[C@H](O)[C@@H](O)[C@H](N=C(N)N)[C@@H](O)[C@@H]3N=C(N)N)O[C@@H](C)[C@]2(O)C=O)O[C@@H](CO)[C@H](O)[C@H]1O | - | H37Rv | - | - | broth dilution / resazurin | MIC | 6.25 µg/mL
O=[N+]([O-])c1ccc(-c2nnc(S(=O)(=O)Cc3ccccc3[N+](=O)[O-])s2)s1 | - | - | - | - | - | MIC | >6.25 µg/mL
O=C(NC1CONC1=O)c1cccc(F)c1 | - | H37Rv | - | - | - | MIC | >50 µg/mL
Cc1ccc2[nH]c3c(c2c1)c1ccccc1c1nnc(C(C)(C)C)n13 | - | H37Rv | - | - | broth dilution / resazurin | MIC | 12.5 µg/mL
CC(=O)C1C(=O)OC(C)=C(C(=O)c2ccccc2)C1=O | - | H37Rv | - | 12.5 µg/mL | BACTEC | inhibition | 18%
O=C(Nc1cccc(C(=O)c2ccccc2)c1)NC12CC3CC(CC(C3)C1)C2 | - | H37Rv | - | - | - | MIC | 5.7 µg/mL
CCOC(=O)NC(=O)c1ccsc1NC(=O)c1nc2ccccc2s1 | biofilm | - | - | - | turbidity | MIC99 | 0.01 µg/mL
COc1cc2oc3cc(O)c(OC)c(CC=C(C)C)c3c(=O)c2c(O)c1CC=C(C)C | - | H37Ra | - | - | - | MIC | 6.25 µg/mL
O=[N+]([O-])c1cccc(CS(=O)c2nnc(-c3ccc([N+](=O)[O-])s3)s2)c1 | - | - | - | - | - | MIC | >6.25 µg/mL
Cc1cc(-c2c(C)[nH]n(-c3cc(C)c4cc(F)ccc4n3)c2=O)n(-c2cc(C)c3cc(F)ccc3n2)n1 | - | H37Rv | - | 6.25 µg/mL | resazurin | inhibition | 68%
C=C(C)C(O)Cc1c(O)cc2oc3cc(O)c(OC)c(CC=C(C)C)c3c(=O)c2c1O | - | H37Ra | - | - | - | MIC | 100 µg/mL
Fc1ccc(N2CN(c3ccc(F)cc3)CN(c3ccc(F)cc3)C2)cc1 | - | H37Rv | - | - | colony count / visual reading | MIC | 25 µg/mL
Fc1ccc(-n2nnnc2SSc2nnnn2-c2ccc(F)cc2)cc1 | - | H37Rv | - | - | - | MIC | 250 µM
c1ccc(N2CN(c3ccccc3)CN(c3ccccc3)C2)cc1 | - | H37Rv | - | - | colony count / visual reading | MIC | 125 µg/mL
Cc1ccc(-n2nnnc2SSc2nnnn2-c2ccc(C)cc2)cc1 | - | H37Rv | - | - | - | MIC | 250 µM

For reference, 6 entries again:

smiles	conditions	strain	changes	dose	read by	read-out	value
CCNC(=O)OCC1=C(COC(=O)NCC)C2OC1C(C(=O)OC)=C2C(=O)OC	-	H37Rv	-	-	BACTEC	MIC bound	>12.5 µg/mL
CN[C@@H]1[C@H](O[C@H]2[C@H](O[C@H]3[C@H](O)[C@@H](O)[C@H](N=C(N)N)[C@@H](O)[C@@H]3N=C(N)N)O[C@@H](C)[C@]2(O)C=O)O[C@@H](CO)[C@H](O)[C@H]1O	-	ATCC 27294	-	-	-	MIC	0.086 µM
C=C(C[N+](C)(C)C)N/N=C/c1oc(-c2ccc(OC)c(OC)c2)c(-c2ccc(OC)c(OC)c2)c1[N+](=O)[O-].[Cl-]	-	H37Rv	-	-	BACTEC	MIC bound	>12.5 µg/mL
Cc1ccc(N2CN(c3ccc(C)cc3)CN(c3ccc(C)cc3)C2)cc1	-	H37Rv	-	-	colony count / visual reading	MIC	250 µg/mL
Fc1cccc(N2CN(c3cccc(F)c3)CN(c3cccc(F)c3)C2)c1	-	H37Rv	-	-	colony count / visual reading	MIC	62.5 µg/mL
CC(C)OC(=O)NNC(=O)c1ccncc1	-	H37Rv	-	6.25 µg/mL	resazurin	inhibition	97%